Data on two sequences can be found in PMC3868556.

Construct, isoform or probe ends are uncertain for at least one entry.

The subject of this series is ComP. The series can be described thus: SPR. The conditions noted are these: 30 uM ComP, no measurable difference from DUS, SPR (ProteOn XPR36, NLC chip): 25 mM HEPES pH 7.9, 150 mM NaCl, 2.5 mM MgCl2, 0.05% Tween-20, 25 C, recombinant protein, protein details: MBP fusion (pMAL-p2X), MBP removed with factor Xa, label: 5'-biotin on strand 1.

As to “TGACCAGGTCGTCTGAACAAAC (double strand) [DUSvar2]”, the binding result is on record as “binds”.

On to “TGACCAGGCCGTCTGAACAAAC (double strand) [DUSvar1]”, for which the binding result is reported as “binds”.
